Reference: paper PMC5834442, “Identifying inhibitors of the Leishmania inositol phosphorylceramide synthase with antiprotozoal activity using a yeast-based assay and ultra-high throughput screening platform” (Scientific Reports, 2018)

Amino acid sequences for entries named in this document (tags omitted). A change or cut given only in a name is not applied to a line headed by its entry.
UniProt P36107: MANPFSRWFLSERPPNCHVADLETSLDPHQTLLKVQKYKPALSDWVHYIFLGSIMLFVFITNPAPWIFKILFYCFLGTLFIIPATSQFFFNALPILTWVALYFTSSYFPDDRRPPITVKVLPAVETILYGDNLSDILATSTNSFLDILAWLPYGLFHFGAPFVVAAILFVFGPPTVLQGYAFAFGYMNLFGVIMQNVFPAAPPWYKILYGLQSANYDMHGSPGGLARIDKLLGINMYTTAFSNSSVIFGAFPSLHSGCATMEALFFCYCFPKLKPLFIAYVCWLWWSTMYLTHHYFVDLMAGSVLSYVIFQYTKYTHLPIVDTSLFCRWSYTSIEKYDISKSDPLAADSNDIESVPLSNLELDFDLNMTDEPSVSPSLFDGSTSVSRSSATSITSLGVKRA
UniProt E9AFX2: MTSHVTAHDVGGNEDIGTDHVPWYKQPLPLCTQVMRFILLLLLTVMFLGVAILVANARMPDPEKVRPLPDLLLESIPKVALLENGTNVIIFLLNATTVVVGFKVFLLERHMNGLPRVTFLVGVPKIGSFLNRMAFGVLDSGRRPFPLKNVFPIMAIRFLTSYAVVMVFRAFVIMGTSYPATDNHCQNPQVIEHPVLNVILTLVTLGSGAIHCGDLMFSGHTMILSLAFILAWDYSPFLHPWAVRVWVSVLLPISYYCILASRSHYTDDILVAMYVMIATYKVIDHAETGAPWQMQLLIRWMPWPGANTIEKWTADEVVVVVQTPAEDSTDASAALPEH

Experiments:
HepG2 cells = assay: Mammalian cell cytotoxicity assay (CellTiter-Glo); assay type: cell-based, human; conditions: for PIC50 HepG2: -logIC50 mol against HepG2; for pSI v HepG2: selectivity: pIC50 axenic minus pIC50 HepG2
AUR1p = AUR1p (Saccharomyces cerevisiae, UniProt P36107); conditions: -logIC50 mol against yeast α ade−.lys−.leu−.Δaur1−.pESC-LEU_AUR1
[1] = tested on: L. donovani (MHOM/SD/62/1S-CL2D, LdBOB) axenic amastigotes; assay: Leishmania donovani axenic amastigote dose response assay (resazurin); assay type: cell-based; conditions: -logIC50 mol against L. donovani (LdBOB) axenic amastigotes
[2] = biological target: L. major IPC synthase (LmjFIPCS) (Leishmania major, UniProt E9AFX2); conditions: -logIC50 mol against yeast α ade−.lys−.leu−.Δaur1−.pESC-LEU_LmjIPCS
THP-1 macrophages = assay: Host cell toxicity in the intramacrophage assay; assay type: cell-based, human
[3] = tested on: intra-macrophage Leishmania donovani amastigotes; assay: Intramacrophage Leishmania donovani assay (high content imaging); assay type: cell-based; conditions: intramacrophage L. donovani

Row | Compound | PIC50 HepG2 (HepG2 cells) | pSI v HepG2 (HepG2 cells) | pIC50 AUR1 (AUR1p) | pIC50 Axenic [1] | pIC50 LmjIPCS [2] | pIC50 THP-1 (THP-1 macrophages; THP-1 host cells in intramacrophage assay) | pSI v THP-1 (THP-1 macrophages; selectivity: pIC50 InMac minus pIC50 THP-1) | pIC50 InMac [3]
1 | CC1=C[C@H]2O[C@@H]3C[C@H]4OC(=O)C=CCC=C5OCC[C@@]6(O[C@@H]6C(=O)OC[C@@]2(CC1)[C@]4(C)[C@@]31CO1)[C@@H]5O | 7.64 | 0.69 | 4.92 | 8.33 | 7.27 |  |  | 
2 | CC1=C[C@H]2O[C@@H]3C[C@H]4OC(=O)C=CC=CC(C(C)O)OCCC(C)C(O)C(=O)OC[C@@]2(CC1)[C@]4(C)[C@]31CO1 (stereo partly shown) | 7.41 | 1.08 | 5.26 | 8.49 | 6.75 | 8.58 | 0.13 | 8.71
